Measured values from several laboratories, pooled; numbers as filed in NIAID ChemDB.

Shared fields: target-level tests; organism: HIV-1; protein: Protease; read-out: IC50

Blank or dashed fields: not listed here. Conditions beyond the fields shown may differ between rows. ICn: concentration for n% inhibition.

structure	mutations	read by	conditions	value
CC(C)CN(C[C@@H](O)[C@H](Cc1ccccc1)NC(=O)O[C@H]1CO[C@H]2[C@@H]1OC[C@H]2O)S(=O)(=O)c1ccc(N)cc1		fluorescence		0.00036 µM
O=c1oc2cc(O)ccc2c(O)c1-c1ccccc1				5 µM
CCCCCC/C=C/CCCCCCCCCc1cccc(O)c1C(=O)O		HPLC		17.8 µM
CC(=O)Oc1cccc(C(=O)N[C@@H](Cc2ccccc2)[C@H](O)CN2C[C@H]3CCCC[C@H]3C[C@H]2C(=O)NC(C)(C)C)c1C		fluorescence		0.158 µg/mL
Cc1cccc(C)c1OCC(=O)N[C@@H](Cc1ccccc1)[C@@H](O)C[C@H](Cc1ccccc1)NC(=O)[C@H](C(C)C)N1CCOC1=O				<0.0005 µM
CC[C@H](C)[C@H](NC(=O)[C@@H]1CCCN1C(=O)[C@H](O)[C@H](Cc1ccccc1)NC(=O)[C@H](CO)NC(=O)CCc1ccccc1)C(=O)N[C@H](C(N)=O)C(C)C				>10 µM
CC(C)(C)NC(=O)[C@@H]1CCCN1C(=O)[C@@H](O)[C@H](Cc1ccccc1)NC(=O)[C@H](CC(N)=O)NC(=O)c1nccc2ccccc12				>0.05 µM
CC1CCC2C(C)(C)C(O)CCC2(C)C12Cc1c(cc3c(c1O)CN(C(CCC(=O)O)C(=O)O)C3=O)O2		substrate cleavage / HPLC		288 µM
CC(C)=CCc1c(O)c(CC=C(C)C)c2occ(-c3ccc(O)cc3)c(=O)c2c1O		HPLC		0.5 µM
COc1cc([C@H]2O[C@H](c3ccc(OC(C)C(O)c4ccc5c(c4)OCO5)c(OC)c3)[C@H](C)[C@H]2C)ccc1O		HPLC		>125 µM
CCCCCC/C=C/CCCCCCCc1cccc(O)c1C(=O)O		HPLC		24.9 µM
CC(C)(C)NC(=O)[C@@H]1CSCN1C(=O)[C@@H](O)[C@H](Cc1ccccc1)NC(=O)[C@H](CC(N)=O)NC(=O)COc1cccc2ccccc12				<0.05 µM
O=c1oc2cc(O)ccc2c(O)c1-c1ccc(O)cc1				2 µM
CC(C)[C@H](NC(=O)OCc1ccccc1)C(=O)N[C@@H](Cc1ccccc1)C(O)[C@H](Cc1ccccc1)NC(=O)[C@@H](NC(=O)OCc1ccccc1)C(C)C				0.003 µM
CC1CCC2C(C)(C)C(O)CCC2(C)C12Cc1c(cc3c(c1O)CNC3=O)O2		substrate cleavage / HPLC		161 µM
CCC(C)NC(=O)[C@@H]1CCCN1C(=O)[C@@H](O)[C@H](Cc1ccccc1)NC(=O)[C@H](CC(N)=O)NC(=O)OCc1ccccc1				>0.05 µM
Cc1c(NS(C)(=O)=O)cccc1C(=O)N[C@@H](Cc1ccccc1)[C@@H](O)CN1C[C@H]2CCCC[C@H]2C[C@H]1C(=O)NC(C)(C)C		fluorescence		0.093 µg/mL
C=C(C)C(O)Cc1c(O)c(CC=C(C)C)c2occ(-c3ccc(O)cc3O)c(=O)c2c1O		HPLC		4.5 µM
COc1ccc2c(O)c(S(=O)(=O)c3ccc(Cl)cc3)c(=O)oc2c1				28 µM
CCOC(=O)COc1ccc(-c2cc(O)c(SCCc3ccccc3)c(=O)o2)cc1				0.57 µM
COc1ccc(Cc2c(O)c3ccc(OC)cc3oc2=O)cc1				3 µM
Cc1cccc(C)c1OCC(=O)N[C@@H](Cc1ccccc1)[C@@H](O)C[C@H](Cc1ccccc1)NC(=O)[C@H](C(C)C)N1CCNC(=O)C1=O				<0.0005 µM
O=C(Oc1ccccc1)N1C2C3C4N(C(=O)Oc5ccccc5)C5C(C1C5(CO)[C@H]3c1ccccc1)[C@@H](c1ccccc1)C24CO				0.3 µM
Cc1cccc(C)c1OCC(=O)N[C@@H](Cc1ccccc1)C[C@@H](O)[C@H](Cc1ccccc1)NC(=O)COc1c(C)cccc1C		fluorescence		0.025 µM
Cc1cccc(C)c1OCC(=O)N[C@@H](Cc1ccccc1)[C@@H](O)C[C@H](Cc1ccccc1)NC(=O)[C@H](C(C)C)N1CCC(=O)NC1=O				<0.0005 µM
COc1cc(CN2C(=O)N(Cc3ccc(N)c(OC)c3)N(C(=O)CCc3ccccc3)C[C@@H](O)[C@H]2Cc2ccccc2)ccc1N		fluorescence	pH 7.0	<0.0005 µM
CC(=O)N1C2C3C4N(C(C)=O)C5C(C1C5(CO)[C@H]3c1ccccc1)[C@@H](c1ccccc1)C24CO				0.312 µM
CC(C)=CCc1c2c(c3occ(-c4ccc(O)cc4O)c(=O)c3c1O)C[C@H](O)C(C)(C)O2		HPLC		5 µM
CC[C@H](C)[C@H](NC(=O)[C@@H]1CCCN1C(=O)[C@H](O)[C@H](Cc1ccccc1)NC(=O)[C@H](CO)NC(=O)Cc1ccccc1)C(=O)N[C@H](C(N)=O)C(C)C				<5 µM
O=C1OC(C2OC(=O)c3cc(O)c(O)c(O)c3-c3c(cc(O)c(O)c3O)C(=O)OCC2O)C2OC(=O)C3C(=C(O)C(=O)C34Oc3cc(O)c5c(c3C24)OC(c2ccc(O)c(O)c2)C(O)C5)c2c1cc(O)c(O)c2O		HPLC		67 µM
CC(C)=CCc1c(O)c(CC=C(C)C)c2occ(-c3ccc(O)cc3O)c(=O)c2c1O		HPLC		4 µM
Cc1cccc(C)c1OCC(=O)N[C@@H](Cc1ccccc1)C[C@H](O)[C@H](Cc1ccccc1)NC(=O)[C@H](NC(=O)c1cc(=O)c2ccccc2[nH]1)C(C)C		fluorescence		0.003 µM
CC[C@@H](C)[C@H](NC(=O)[C@@H]1CCCN1C(=O)[C@@H](O)[C@H](CC1CCCCC1)NC(=O)[C@H](CC(N)=O)NC(=O)OCC1c2ccccc2-c2ccccc21)C(=O)N[C@H](C(N)=O)C(C)C				<5 µM
CC(C)[C@H](NC(=O)[C@@H](NC(=O)C(Cc1ccccc1)NC(=O)[C@@H](O)[C@H](Cc1ccccc1)NC(=O)[C@@H](N[C@H](C(=O)O)C(C)C)C(C)C)C(C)C)C(N)=O				2.6 µM
O=C(CCc1ccccc1)N1C[C@@H](O)[C@@H](Cc2ccccc2)N(Cc2ccc(O)cc2)C(=O)N1Cc1ccc(O)cc1		fluorescence	pH 7.0	<0.0005 µM
CC(C)(C)NC(=O)[C@@H]1C[C@@H]2CCCC[C@@H]2CN1C[C@H](O)[C@H](Cc1ccccc1)NC(=O)c1c(Cl)ccc(O)c1Cl		fluorescence		0.346 µg/mL
O=c1oc2cc(O)ccc2c(O)c1Cc1ccccc1				9.5 µM
CC(C)[C@H](NC(=O)COc1cccnc1)C(=O)N[C@@H](Cc1ccccc1)[C@H](O)C(=O)N1CSC[C@H]1C(=O)NC(C)(C)C				~0.05 µM
COc1cc(CN2C(=O)N(Cc3ccc(O)c(OC)c3)N(C(=O)CCc3ccco3)C[C@@H](O)[C@H]2Cc2ccccc2)ccc1O		fluorescence		<0.0005 µM
CC(C)C[C@@H](C=O)NC(=O)[C@H](CC(C)C)NC(=O)[C@H](CC(C)C)NC(=O)OCc1ccccc1				>100 µM
Cc1c(O)cccc1C(=O)N[C@@H](Cc1ccccc1)[C@@H](O)CN1CCN(Cc2cccnc2)C[C@H]1C(=O)NC(C)(C)C		fluorescence		0.002 µg/mL
CC(C)CNC(=O)[C@@H](NC(=O)[C@H](Cc1ccccc1)NC(=O)[C@H](O)[C@H](Cc1ccccc1)NC(=O)[C@@H](NC(=O)OC(C)(C)C)C(C)C)C(C)C				>5 µM
Cn1ccc2c(C(=O)N[C@@H](CSc3ccc4ccccc4c3)[C@H](O)Cc3ccccc3C(=O)NC(C)(C)C)cccc21		fluorescence		>15 µg/mL
CC[C@H](C)[C@H](NC(=O)[C@@H]1CCCN1C(=O)[C@@H](O)[C@H](Cc1ccccc1)NC(=O)[C@H](CO)NC(=O)CCc1ccccc1)C(=O)N[C@H](C(N)=O)C(C)C				1.594 µM
Cc1c(O)ccc2c(O)c(Oc3ccc4ccc(=O)oc4c3)c(=O)oc12				9 µM
CC[C@H](C)[C@H](NC(=O)[C@@H]1CCCN1C(=O)[C@@H](O)[C@H](Cc1ccccc1)NC(=O)[C@H](CC(N)=O)NC(=O)CCc1ccccc1)C(=O)N[C@H](C(N)=O)C(C)C				0.468 µM
CCCCCC/C=C/CCCCCCCCCc1cccc(O)c1		HPLC		>100 µM
COC(=O)c1cc(NC(=O)c2nc3ccc(NC(=O)c4cc(NC(=O)OC(C)(C)C)cs4)cc3o2)cs1	L24I/M46I/F53L/L63P/V77I/V82A	fluorescence		10.6 µM
CC[C@H](C)[C@H](NC(=O)[C@@H]1CCCN1C(=O)[C@H](O)[C@H](CC1CCCCC1)NC(=O)[C@H](CC(N)=O)NC(=O)CCc1ccccc1)C(=O)N[C@H](C(N)=O)C(C)C				>10 µM
O=C(COc1ccccc1O)N[C@@H](Cc1ccccc1)C[C@@H](O)[C@H](Cc1ccccc1)NC(=O)COc1ccccc1O		fluorescence		9 µM
Oc1cc(O)cc(Oc2c(O)cc(O)c3c2Oc2c(cc(O)c(-c4c(O)cc5c(c4O)Oc4c(Oc6cc(O)cc(O)c6)c(O)cc(O)c4O5)c2O)O3)c1		HPLC		81.5 µM
C=CSC(NC(=O)[C@H](Cc1ccccc1)NS(=O)(=O)N1CCOCC1)C(=O)N[C@@H](CC1CCCCC1)[C@@H](O)C[C@H](C(=O)NCCCC)C(C)C		HPLC		0.002 µM

Again, the opening 7 rows:

structure | mutations | read by | conditions | value
CC(C)CN(C[C@@H](O)[C@H](Cc1ccccc1)NC(=O)O[C@H]1CO[C@H]2[C@@H]1OC[C@H]2O)S(=O)(=O)c1ccc(N)cc1 |  | fluorescence |  | 0.00036 µM
O=c1oc2cc(O)ccc2c(O)c1-c1ccccc1 |  |  |  | 5 µM
CCCCCC/C=C/CCCCCCCCCc1cccc(O)c1C(=O)O |  | HPLC |  | 17.8 µM
CC(=O)Oc1cccc(C(=O)N[C@@H](Cc2ccccc2)[C@H](O)CN2C[C@H]3CCCC[C@H]3C[C@H]2C(=O)NC(C)(C)C)c1C |  | fluorescence |  | 0.158 µg/mL
Cc1cccc(C)c1OCC(=O)N[C@@H](Cc1ccccc1)[C@@H](O)C[C@H](Cc1ccccc1)NC(=O)[C@H](C(C)C)N1CCOC1=O |  |  |  | <0.0005 µM
CC[C@H](C)[C@H](NC(=O)[C@@H]1CCCN1C(=O)[C@H](O)[C@H](Cc1ccccc1)NC(=O)[C@H](CO)NC(=O)CCc1ccccc1)C(=O)N[C@H](C(N)=O)C(C)C |  |  |  | >10 µM
CC(C)(C)NC(=O)[C@@H]1CCCN1C(=O)[C@@H](O)[C@H](Cc1ccccc1)NC(=O)[C@H](CC(N)=O)NC(=O)c1nccc2ccccc12 |  |  |  | >0.05 µM